Drawing on patent publication US7998950B2, “Antiviral compounds” (Gilead Sciences, Inc., priority 2008, dated 2011), this text covers EC50 for two compounds.

Each structure is given as a SMILES string. pEC50: −log10 of the molar value.

This test deals with HIV-IIIb. In words: Antiviral assay in MT-2 cells infected with HIV-IIIb. In kind it is cell-based. The settings on record: read-out: EC50 in MT-2 cells, m.o.i. 0.01, 10% FBS, 5 days at 37° C., CellTiter-Glo chemiluminescence.

Consider `CNC(=O)c1c(O)c2ncc(Cc3ccc(F)cc3)c3c2n(c1=O)C[C@@H](CN1CCN(S(C)(=O)=O)CC1)O3`, for which the pEC50 is 9.52. Then `CNC(=O)c1c(O)c2ncc(Cc3ccc(F)cc3)c3c2n(c1=O)CC[C@H](C(=O)NC)O3`, with 7.37.
